Laboratory results from article PMC4029850 (Journal of immunological methods, 2014).
Where “and” joins values, the source holds several entries; their conditions need not be identical. Equal entries are not always repeated.

Target: Soluble recombinant MHCII molecule DR1 (HLA-DRA*01:01;DRB1*01:01) (human)
Experiment: fluorescence polarisation

## Influenza hemagglutinin peptide HA306-318
  IC50: 74 nM and 79 nM
